A mixed list of measured activities; the numbers were collected in NIAID ChemDB.

Shared fields: toxicity to cultured cells; cell line: MT-4; measure: CC50

An empty or dashed field is not shown.

smiles,read by,result
COc1ccc(Cn2cc(CSc3nc(Cc4cccc5ccccc45)c(C)c(=O)[nH]3)nn2)cc1,MTT,26.53 µM
CNNC(=O)c1cn(Cc2ccncc2)c(Sc2cc(Cl)cc(Cl)c2)c1C(C)C,MTT,184 µM
CCOCn1c2c(c(=O)[nH]c1=O)Nc1ccc(Cl)cc1S2,MTT,28 µg/mL
NC(=O)OCc1cn(Cc2ccncc2)c(Sc2cc(Cl)cc(Cl)c2)c1C1CCC1,MTT,114.5 µM
CCC(C)Oc1cc(N)nc(Sc2ccc(C)cc2)n1,,300 µM
Cc1cn([C@@H]2O[C@@H](CO)[C@H](N=[N+]=[N-])[C@@H]2O)c(=O)[nH]c1=O,,>1000 µM
OCc1cn(Cc2ccncc2)c(Sc2cc(Cl)cc(Cl)c2)c1C1CCCCC1,MTT,84 µM
CCc1c(Cc2cccc(Br)c2)nc(SCc2ccc(OC)cc2)[nH]c1=O,,>201 µM
Cc1cn([C@H]2C[C@H](N=[N+]=[N-])[C@@H](CO)O2)c(=O)[nH]c1=O,MTT,68.5 µM
O=c1[nH]c(=O)n([C@@H]2O[C@H](CO)[C@@H](O)[C@H]2O)c2c1Nc1ccccc1S2,MTT,53 µg/mL
Nc1ncnc2c1ncn2C1CC(CO)(CO)C1,,>500 µM
CCOC(=O)c1cn(Cc2ccncc2)c(Sc2cc(Cl)cc(Cl)c2)c1C1CC1,MTT,70 µM
Cc1cn([C@@H]2O[C@@H](CO)[C@@H](F)[C@H]2O)c(=O)[nH]c1=O,,>1000 µM
CCOC(=O)c1c[nH]cc1S(=O)(=O)c1cc(Cl)ccc1N,MTT,96 µM
Cc1c(Cc2c(Cl)cccc2Cl)nc(S(=O)(=O)Cc2ccc(Br)cc2)[nH]c1=O,MTT,>50 µM
CONC(=O)c1cn(Cc2ccncc2)c(Sc2cc(Cl)cc(Cl)c2)c1C(C)C,MTT,40 µM
CCN1C(=O)c2cn(C)cc2S(=O)(=O)c2cc(Cl)ccc21,MTT,>200 µM
Cc1ccnc2c1NC(=O)c1cccnc1N2C1CC1,MTT,>7.5 µM
Nc1nc(=O)n([C@@H]2CS[C@H](CO)O2)cc1F,,20 µM
Nc1ccn([C@H]2CC[C@@H](CO)O2)c(=O)n1,,74–3000 µM
Cc1ccccc1Cn1cc(CSc2nc(Cc3cccc4ccccc34)c(C)c(=O)[nH]2)nn1,MTT,24.01 µM
CC(C)c1c(COC(N)=O)cn(Cc2ccncc2)c1Sc1cc(Cl)cc(Cl)c1,MTT,>200 µM
CCC(C)Oc1nc(N)cc(S(=O)(=O)c2cccc(C)c2)n1,,>200 µM
CCOC(=O)c1cn(C)cc1S(=O)(=O)c1ccccc1,MTT,>200 µM
Nc1ncnc2c1ncn2[C@@H]1C[C@H](CO)[C@H]1CO,,12 µM
Fc1cccc(F)c1[C@H]1SCc2nc3ccccc3n21,,38.1 µM
Cc1cn([C@H]2C[C@H](F)[C@H](CO)O2)c(=O)[nH]c1=O,,>1000 µM
Cc1c(Cc2c(Cl)cccc2Cl)nc(SCc2ccc([N+](=O)[O-])cc2)[nH]c1=O,MTT,>58 µM
CCCCSc1nc(N)cc(Cl)n1,,149 µM
O=c1[nH]c(SCc2cn(Cc3ccc(F)cc3)nn2)nc(Cc2cccc3ccccc23)c1I,MTT,81.81 µM
COc1ccc(CSc2nc(Cc3ccc(-c4ccccc4)cc3)c(C)c(=O)[nH]2)cc1,,>100 µM
CCC(C)Oc1nc(N)cc(Sc2ccccc2)n1,,80 µM
Cc1cn([C@H]2CC[C@H](CO)O2)c(=O)[nH]c1=O,,>1000 µM
COc1ccc(Cn2cc(CSc3nc(Cc4cccc5ccccc45)cc(=O)[nH]3)nn2)cc1,MTT,68.53 µM
CCC(C)Oc1cc(N)nc(S(=O)(=O)c2cc(C)cc(C)c2)n1,,70 µM
OCc1cn(Cc2ccncc2)c(Sc2cc(Cl)cc(Cl)c2)c1C1CC1,MTT,80 µM
N#Cc1ccc(Cn2cc(CSc3nc(Cc4c(Cl)cccc4Cl)cc(=O)[nH]3)nn2)cc1,MTT,133 µM
Nc1ccn([C@H]2CC[C@@H](CO)O2)c(=O)n1,,165 µM
CCc1c(Cc2ccccc2Br)nc(SCc2ccc(OC)cc2)[nH]c1=O,,>165 µM
N#Cc1ccccc1Cn1cc(CSc2nc(Cc3cccc4ccccc34)c(I)c(=O)[nH]2)nn1,MTT,75.93 µM
C=C1C[C@@H](n2cnc3c(=O)[nH]c(N)nc32)[C@@H]1CO,,>100 µM
Cc1ccnc2c1NC(=O)c1cccnc1N2C1CC1,MTT,>15.02 µM
CC(C)c1c(CO)cn(Cc2ccncc2)c1Sc1cc(Cl)cc(Cl)c1,MTT,>200 µM
Cc1c(Cc2c(Cl)cccc2Cl)nc(SCc2ccc(O)cc2)[nH]c1=O,MTT,41 µM
CCC(C)Oc1cc(N)nc(Sc2ccc(N)cc2)n1,,200 µM
CCOCn1c2c(c(=O)[nH]c1=O)Nc1ccc(C)cc1S2,MTT,9.5 µg/mL
CCC(C)Oc1cc(N)nc(Sc2cccc(N)c2)n1,,112 µM
c1cc(CN2CCNCCNCCNCC2)cc(CN2CCNCCNCCNCC2)c1,,6.2 µM

Repeating the final 3 entries:

smiles | read by | result
CCOCn1c2c(c(=O)[nH]c1=O)Nc1ccc(C)cc1S2 | MTT | 9.5 µg/mL
CCC(C)Oc1cc(N)nc(Sc2cccc(N)c2)n1 |  | 112 µM
c1cc(CN2CCNCCNCCNCC2)cc(CN2CCNCCNCCNCC2)c1 |  | 6.2 µM

Neighbouring rows are from separate reports. CCn: concentration that lowers growth or viability of the cells by n%. a–b is a range or a potency band.